The text below walks through data of ChEMBL document CHEMBL2029225, “Synthesis of marine-derived 3-alkylpyridinium alkaloids with potent antiprotozoal activity” (ACS Med Chem Lett, 2011).

In assay [1] the test system is Trypanosoma brucei brucei. Briefly: Antitrypanosomal activity against TbAt1-deficient bloodstraem form Trypanosoma brucei brucei B48 after 72 hrs by alamar blue assay. (Resazurin is reduced to fluorescent resorufin, in cell work by metabolically active cells.)
The subject of assay [2] is Trypanosoma brucei brucei. In words: Antitrypanosomal activity against TbAt1-deficient bloodstraem form of Trypanosoma brucei brucei 427 (BS221) after 72 hrs by alamar blue assay.
Assay [3] relates to Trypanosoma brucei brucei. Briefly: Antitrypanosomal activity against bloodstream form of Trypanosoma brucei brucei 427 (BS221) after 72 hrs by alamar blue assay.

What is called EC50 is the concentration giving half of the maximal effect. Lower therefore signals a more potent agent. As to `O=[As]c1ccccc1` (stereo not drawn), the EC50 in assay [1] was found to be 1.3 nM; in assay [2], 0.45 nM; in assay [3], 0.66 nM.
